Measurements as given in the NIST ThermoML archive (doi:10.1016/j.jct.2018.12.036).

Columns and labels:
[1] = Plate method
[2] = xn = mol fraction of the nth substance listed; details: Plate method

CCCCOP(=O)(OCCCC)OCCCC [tributyl phosphate]
[1]
Details | surface tension liquid-gas [mN/m]
293.15 K | 27.79
298.15 K | 27.42
303.15 K | 27.05
308.15 K | 26.69
313.15 K | 26.35
318.15 K | 26.02
323.15 K | 25.66

CCCCOP(=O)(OCCCC)OCCCC [tributyl phosphate] + CCCC[n+]1ccn(C)c1.O=S(=O)([N-]S(=O)(=O)C(F)(F)F)C(F)(F)F
surface tension liquid-gas [mN/m], [2]
Details | 293.15 K | 298.15 K | 303.15 K | 308.15 K | 313.15 K | 318.15 K | 323.15 K
x2 = 0.0659 | 28.15 | 27.8 | 27.46 | 27.12 | 26.78 | 26.44 | 26.08
x2 = 0.137 | 28.48 | 28.15 | 27.82 | 27.5 | 27.19 | 26.85 | 26.51
x2 = 0.2139 | 28.79 | 28.45 | 28.13 | 27.84 | 27.53 | 27.2 | 26.87
x2 = 0.2974 | 29.06 | 28.73 | 28.43 | 28.15 | 27.84 | 27.53 | 27.2
x2 = 0.3884 | 29.35 | 29.06 | 28.76 | 28.43 | 28.17 | 27.9 | 27.6
x2 = 0.4879 | 29.63 | 29.37 | 29.12 | 28.84 | 28.56 | 28.25 | 27.96
x2 = 0.5971 | 29.9 | 29.61 | 29.38 | 29.08 | 28.84 | 28.55 | 28.28
x2 = 0.7175 | 30.19 | 29.91 | 29.64 | 29.37 | 29.11 | 28.89 | 28.61
x2 = 0.8511 | 30.64 | 30.35 | 30.12 | 29.85 | 29.59 | 29.41 | 29.16
x2 = 0.9235 | 31.19 | 31.01 | 30.78 | 30.55 | 30.29 | 30.05 | 29.82
x2 = 0.9843 | 32.55 | 32.35 | 32.12 | 31.89 | 31.7 | 31.49 | 31.31

CCCCOP(=O)(OCCCC)OCCCC [tributyl phosphate] + CCCCn1cc[n+](C)c1.F[P-](F)(F)(F)(F)F
surface tension liquid-gas [mN/m], [2]
Details | 293.15 K | 298.15 K | 303.15 K | 308.15 K | 313.15 K | 318.15 K | 323.15 K
x2 = 0.0943 | 28.63 | 28.24 | 27.89 | 27.61 | 27.29 | 26.92 | 26.53
x2 = 0.1898 | 29.18 | 28.85 | 28.46 | 28.18 | 27.88 | 27.53 | 27.15
x2 = 0.2866 | 29.66 | 29.34 | 28.99 | 28.65 | 28.34 | 28.03 | 27.68
x2 = 0.3845 | 30.11 | 29.77 | 29.41 | 29.07 | 28.79 | 28.47 | 28.11
x2 = 0.4838 | 30.61 | 30.25 | 29.92 | 29.65 | 29.31 | 28.97 | 28.62
x2 = 0.5843 | 31.12 | 30.76 | 30.43 | 30.15 | 29.83 | 29.51 | 29.16
x2 = 0.6862 | 31.62 | 31.29 | 30.95 | 30.69 | 30.36 | 30.03 | 29.7
x2 = 0.7894 | 32.09 | 31.76 | 31.44 | 31.14 | 30.85 | 30.53 | 30.16
x2 = 0.894 | 32.5 | 32.17 | 31.86 | 31.59 | 31.27 | 30.95 | 30.61
x2 = 0.9574 | 35.96 | 35.67 | 35.35 | 35.06 | 34.81 | 34.57 | 34.29
x2 = 0.9893 | 37.54 | 37.34 | 37.07 | 36.81 | 36.49 | 36.23 | 35.95

CCCCOP(=O)(OCCCC)OCCCC [tributyl phosphate] + CCCCn1cc[n+](C)c1.F[B-](F)(F)F
surface tension liquid-gas [mN/m], [2]
Details | 293.15 K | 298.15 K | 303.15 K | 308.15 K | 313.15 K | 318.15 K | 323.15 K
x2 = 0 | 27.79 | 27.42 | 27.05 | 26.69 | 26.35 | 26.02 | 25.66
x2 = 0.1158 | 28.22 | 27.87 | 27.56 | 27.2 | 26.84 | 26.51 | 26.12
x2 = 0.2275 | 28.61 | 28.27 | 27.92 | 27.57 | 27.21 | 26.89 | 26.54
x2 = 0.3355 | 28.88 | 28.56 | 28.21 | 27.84 | 27.51 | 27.17 | 26.84
x2 = 0.4399 | 29.21 | 28.91 | 28.52 | 28.16 | 27.79 | 27.48 | 27.22
x2 = 0.5409 | 29.48 | 29.19 | 28.84 | 28.47 | 28.12 | 27.81 | 27.48
x2 = 0.6387 | 29.89 | 29.54 | 29.24 | 28.91 | 28.49 | 28.22 | 27.89
x2 = 0.7333 | 30.32 | 30.04 | 29.71 | 29.34 | 28.97 | 28.69 | 28.37
x2 = 0.825 | 30.97 | 30.68 | 30.35 | 30 | 29.64 | 29.38 | 29.02
x2 = 0.9138 | 32.38 | 32.05 | 31.79 | 31.39 | 31.07 | 30.79 | 30.48
x2 = 0.9572 | 34.89 | 34.57 | 34.28 | 34.01 | 33.74 | 33.38 | 33
x2 = 0.9915 | 38.98 | 38.61 | 38.31 | 38.09 | 37.73 | 37.46 | 37.14
